Compound potency records, mixed from different reports. Data source: NIAID ChemDB in PubChem.

All rows: whole-cell or culture tests; species: HIV-1; method: p24 / ELISA; endpoint: EC50

ECn is the concentration giving n% inhibition of infection, replication or growth. Conditions beyond the fields shown may differ between rows.

{"SMILES": "CC1=C[C@H]2[C@@]3(O)[C@H](C)[C@@H](OC(=O)CCCCCCCCBr)[C@]4(OC(=O)CCCCCCCCBr)[C@H]([C@@H]3C=C(CO)C[C@]2(O)C1=O)C4(C)C", "cells": "C8166", "strain or isolate": "IIIB", "result": "17.13 µM"}
{"SMILES": "C=C(C)[C@@H]1CC[C@]2(NC[C@H]([C@@H](C)O)N3CCS(=O)(=O)CC3)CC[C@]3(C)[C@H](CC[C@@H]4[C@@]5(C)CC[C@H](OC(=O)[C@H]6C[C@@H](C(=O)O)C6(C)C)C(C)(C)[C@@H]5CC[C@]43C)[C@@H]12", "cells": "MT-4", "strain or isolate": "NL4-3", "result": "<0.01 µM"}
{"SMILES": "CC1=C[C@H]2[C@@]3(O)[C@H](C)[C@@H](OC(=O)CCc4ccccc4)[C@]4(O)[C@H]([C@@H]3C=C(CO)C[C@]2(O)C1=O)C4(C)C", "cells": "C8166", "strain or isolate": "IIIB", "result": "51.6 µM"}
{"SMILES": "COCCOCCOCCO[C@H](C)[C@@H](CN[C@]12CC[C@@H](C3(C)CC3)[C@@H]1[C@H]1CC[C@@H]3[C@@]4(C)CC[C@H](OC(=O)[C@H]5C[C@@H](C(=O)O)C5(C)C)C(C)(C)[C@@H]4CC[C@@]3(C)[C@]1(C)CC2)N1CCS(=O)(=O)CC1", "cells": "MT-2", "strain or isolate": "92HT599", "result": "<0.01 µM"}
{"SMILES": "CC(C)OC(=O)OCOP(=O)(CO[C@H](C)Cn1cnc2c(N)ncnc21)OCOC(=O)OC(C)C", "cells": "C8166", "mutations": "K103N", "result": "0.05067 µM"}
{"SMILES": "Cc1cc(C)cc(Cc2c(I)c(=O)[nH]c(=O)n2COCc2ccccc2)c1", "cells": "TZM-bl", "strain or isolate": "A17", "mutations": "Y181C", "result": "0.022 µM"}
{"SMILES": "CC/C=C\\C/C=C\\C/C=C\\C/C=C\\C/C=C\\CCCC(=O)OCC1=C[C@H]2[C@@H]3C(C)(C)[C@]3(OC(=O)CCC/C=C\\C/C=C\\C/C=C\\C/C=C\\C/C=C\\CC)[C@H](O)[C@@H](C)[C@]2(O)[C@@H]2C=C(C)C(=O)[C@@]2(O)C1", "cells": "C8166", "strain or isolate": "IIIB", "result": "12.74 µM"}
{"SMILES": "CC(C)C1=C2[C@H]3CC[C@@H]4[C@@]5(C)CC[C@H](OC(=O)[C@H]6C[C@@H](C(=O)O)C6(C)C)C(C)(C)[C@@H]5CC[C@@]4(C)[C@]3(C)CC[C@@]2(CCNCc2ccc(N3CCOCC3)cc2)CC1=O", "cells": "MT-2", "strain or isolate": "92HT599", "result": "<1 µM"}
{"SMILES": "CC1([C@@H]2CC[C@]3(NCC(C)(C)N4CCS(=O)(=O)CC4)CC[C@]4(C)[C@H](CC[C@@H]5[C@@]6(C)CC[C@H](OC(=O)[C@H]7C[C@@H](C(=O)O)C7(C)C)C(C)(C)[C@@H]6CC[C@]54C)[C@@H]23)CC1", "cells": "MT-4", "strain or isolate": "NL4-3", "result": ">0.05 µM"}
{"SMILES": "CC(C)C1=C2[C@H]3CC[C@@H]4[C@@]5(C)CC[C@H](OC(=O)[C@H]6C[C@@H](C(=O)O)C6(C)C)C(C)(C)[C@@H]5CC[C@@]4(C)[C@]3(C)CC[C@@]2(CC(=O)NCC(C)(C)NC(=O)c2ccc(Cl)cc2OCCN2CCS(=O)(=O)CC2)CC1=O", "cells": "MT-2", "strain or isolate": "92HT599", "result": "<1 µM"}
{"SMILES": "CCCCCCCCC(=O)O[C@@H]1[C@@H](C)[C@]2(O)[C@@H]3C=C(C)C(=O)[C@@H]3CC(CO)=C[C@H]2[C@@H]2C(C)(C)[C@]12OC(=O)CCCCCCCC", "cells": "C8166", "strain or isolate": "IIIB", "result": "6.23 µM"}
{"SMILES": "CC(C)C1=C2[C@H]3CC[C@@H]4[C@@]5(C)CC[C@H](OC(=O)[C@@H]6C[C@H](C(=O)O)C6(C)C)C(C)(C)[C@@H]5CC[C@@]4(C)[C@]3(C)CC[C@@]2(CCNCc2ccc(Cl)cc2)CC1=O", "cells": "MT-2", "strain or isolate": "92HT599", "result": "<1 µM"}
{"SMILES": "CC(=O)O[C@@]12[C@H](OC(=O)/C=C/c3ccc(Cl)cc3)[C@@H](C)[C@@]3(O)[C@@H](C=C(CO)C[C@]4(O)C(=O)C(C)=C[C@@H]34)[C@@H]1C2(C)C", "cells": "C8166", "result": "0.0246 µM"}
{"SMILES": "CC(C)C1=C2[C@H]3CC[C@@H]4[C@@]5(C)CC[C@H](OC(=O)[C@H]6C[C@@H](C(=O)O)C6(C)C)C(C)(C)[C@@H]5CC[C@@]4(C)[C@]3(C)CC[C@@]2([C@@H](O)CNC(=O)C2(N)CNC2)CC1=O", "cells": "MT-2", "strain or isolate": "92HT599", "result": "<1 µM"}
{"SMILES": "CCCCCCCCC(=O)O[C@@]12[C@H](OC(=O)/C=C/c3ccc(Br)cc3)[C@@H](C)[C@@]3(O)[C@@H](C=C(CO)C[C@]4(O)C(=O)C(C)=C[C@@H]34)[C@@H]1C2(C)C", "cells": "C8166", "strain or isolate": "IIIB", "result": "0.0038 µM"}
{"SMILES": "CC(C)C1=C2[C@H]3CC[C@@H]4[C@@]5(C)CC[C@H](OC(=O)[C@H]6C[C@@H](C(=O)O)C6(C)C)C(C)(C)[C@@H]5CC[C@@]4(C)[C@]3(C)CC[C@@]2([C@@H](O)CNCc2ccc(Cl)cc2OC2CCNCC2)CC1=O", "cells": "MT-2", "strain or isolate": "92HT599", "result": "<1 µM"}
{"SMILES": "CC(C)[C@H](CN[C@]12CC[C@@H](C3(C)CC3)[C@@H]1[C@H]1CC[C@@H]3[C@@]4(C)CC[C@H](OC(=O)[C@H]5C[C@@H](C(=O)O)C5(C)C)C(C)(C)[C@@H]4CC[C@@]3(C)[C@]1(C)CC2)N1CCS(=O)(=O)CC1", "cells": "MT-4", "strain or isolate": "NL4-3", "mutations": "V7A", "result": ">0.1 µM"}
{"SMILES": "CC(C)C1=C2[C@H]3CC[C@@H]4[C@@]5(C)CC[C@H](OC(=O)[C@@H]6C[C@H](C(=O)O)C6(C)C)C(C)(C)[C@@H]5CC[C@@]4(C)[C@]3(C)CC[C@@]2(CC(=O)NC(C)(C)c2ccccc2)CC1=O", "cells": "MT-2", "strain or isolate": "92HT599", "result": "<1 µM"}
{"SMILES": "CC1([C@@H]2CC[C@]3(NC[C@@H](CF)N4CCS(=O)(=O)CC4)CC[C@]4(C)[C@H](CC[C@@H]5[C@@]6(C)CC[C@H](OC(=O)[C@H]7C[C@@H](C(=O)O)C7(C)C)C(C)(C)[C@@H]6CC[C@]54C)[C@@H]23)CC1", "cells": "MT-2", "strain or isolate": "92HT599", "result": "<0.01 µM"}
{"SMILES": "CC(C)C1=C2[C@H]3CC[C@@H]4[C@@]5(C)CC[C@H](OC(=O)[C@H]6C[C@@H](C(=O)O)C6(C)C)C(C)(C)[C@@H]5CC[C@@]4(C)[C@]3(C)CC[C@@]2([C@@H](O)CNCc2ccc(OCCN3CCOCC3)cc2)CC1=O", "cells": "MT-2", "strain or isolate": "92HT599", "result": "<1 µM"}
{"SMILES": "CC(=O)O[C@@]12[C@H](OC(=O)CCCCCCBr)[C@@H](C)[C@@]3(O)[C@@H](C=C(CO)C[C@]4(O)C(=O)C(C)=C[C@@H]34)[C@@H]1C2(C)C", "cells": "C8166", "strain or isolate": "IIIB", "result": "0.0474 µM"}

Repeating the final 2 entries:

CC(C)C1=C2[C@H]3CC[C@@H]4[C@@]5(C)CC[C@H](OC(=O)[C@H]6C[C@@H](C(=O)O)C6(C)C)C(C)(C)[C@@H]5CC[C@@]4(C)[C@]3(C)CC[C@@]2([C@@H](O)CNCc2ccc(OCCN3CCOCC3)cc2)CC1=O ; cells: MT-2 ; strain or isolate: 92HT599 ; result: <1 µM
CC(=O)O[C@@]12[C@H](OC(=O)CCCCCCBr)[C@@H](C)[C@@]3(O)[C@@H](C=C(CO)C[C@]4(O)C(=O)C(C)=C[C@@H]34)[C@@H]1C2(C)C ; cells: C8166 ; strain or isolate: IIIB ; result: 0.0474 µM